Assay results: patent publication US6673827B1, “Methods of treating fungal infections with inhibitors of NAD synthetase enzyme” (priority 1999, dated 2004)
Several values for one entry are separate records, joined by “and”; a condition that tells them apart may be missing. Equal values may be shown once.

Columns and labels:
[1] = tested on: Candida tropicalis ATCC 750; assay: In vitro study of inhibition of growth and lethality against yeast (MIC/MLC susceptibility test), isolate A; conditions: 2nd pair of lines, isolate assigned by line order, tested form: iodide
[2] = tested on: Candida tropicalis ATCC 28707; assay: In vitro study of inhibition of growth and lethality against yeast (MIC/MLC susceptibility test), isolate B; type: cell-based; conditions: 1st pair of lines, isolate assigned by line order, tested form: iodide
[3] = tested on: Candida albicans KJP-000531594; assay: In vitro study of inhibition of growth and lethality against yeast (MIC/MLC susceptibility test), isolate C; conditions: 1st pair of lines, tested form: iodide
[4] = tested on: Candida albicans LH-000664533; assay: In vitro study of inhibition of growth and lethality against yeast (MIC/MLC susceptibility test), isolate D; type: cell-based; conditions: 2nd pair of lines, isolate assigned by line order, tested form: iodide
[5] = tested on: Torulopsis glabrata JHC-BC9951635; assay: In vitro study of inhibition of growth and lethality against yeast (MIC/MLC susceptibility test), isolate E; conditions: 2nd pair of lines, isolate assigned by line order, tested form: iodide
[6] = tested on: Torulopsis glabrata ERH-BC9938274; assay: In vitro study of inhibition of growth and lethality against yeast (MIC/MLC susceptibility test), isolate F; type: cell-based; conditions: 1st pair of lines, isolate assigned by line order, tested form: iodide
[7] = tested on: Cryptococcus neoformans DLB-1027594CNC; assay: In vitro study of inhibition of growth and lethality against yeast (MIC/MLC susceptibility test), isolate G; type: cell-based; conditions: 1st pair of lines, isolate assigned by line order, tested form: iodide
[8] = tested on: Cryptococcus neoformans SLP-BC0012854; assay: In vitro study of inhibition of growth and lethality against yeast (MIC/MLC susceptibility test), isolate H; conditions: 2nd pair of lines, isolate assigned by line order, tested form: iodide

## C[n+]1c2c(cc3ccccc31)C(=O)OCCCCCCCCn1cc-2c2cc(OCc3ccccc3)ccc21
[1]
  Minimum Lethal Conc. (MLC): 8 µg/mL
[1]; read at 24 hr
  Minimum Inhibitory Conc. (MIC), 24 hr.: 2 µg/mL and 4 µg/mL
[1]; read at 48 hr
  Minimum Inhibitory Conc. (MIC), 48 hr.: 4 µg/mL
[2]
  Minimum Lethal Conc. (MLC): 4 µg/mL
[2]; read at 24 hr
  Minimum Inhibitory Conc. (MIC), 24 hr.: 0.25 µg/mL and 0.5 µg/mL
[2]; read at 48 hr
  Minimum Inhibitory Conc. (MIC), 48 hr.: 0.5 µg/mL
[3]; isolate assigned by line order
  Minimum Lethal Conc. (MLC): 8 µg/mL
[3]; read at 24 hr, isolate not given, assigned by line order and MLC of Table 4B
  Minimum Inhibitory Conc. (MIC), 24 hr.: 2 µg/mL
[3]; read at 48 hr, isolate assigned by line order
  Minimum Inhibitory Conc. (MIC), 48 hr.: 4 µg/mL
[4]
  Minimum Lethal Conc. (MLC): 16 µg/mL
[4]; read at 24 hr
  Minimum Inhibitory Conc. (MIC), 24 hr.: 4 µg/mL and 2 µg/mL
[4]; read at 48 hr
  Minimum Inhibitory Conc. (MIC), 48 hr.: 4 µg/mL
[5]
  Minimum Lethal Conc. (MLC): 32 µg/mL
[5]; read at 24 hr
  Minimum Inhibitory Conc. (MIC), 24 hr.: 16 µg/mL and 8 µg/mL
[5]; read at 48 hr
  Minimum Inhibitory Conc. (MIC), 48 hr.: 16 µg/mL
[6]
  Minimum Lethal Conc. (MLC): 32 µg/mL
[6]; read at 24 hr
  Minimum Inhibitory Conc. (MIC), 24 hr.: 16 µg/mL and 8 µg/mL
[6]; read at 48 hr
  Minimum Inhibitory Conc. (MIC), 48 hr.: 16 µg/mL
[7]
  Minimum Lethal Conc. (MLC): 16 µg/mL
[7]; read at 48 hr
  Minimum Inhibitory Conc. (MIC), 48 hr.: 8 µg/mL
[7]; read at 72 hr
  Minimum Inhibitory Conc. (MIC), 72 hr.: 8 µg/mL
[8]
  Minimum Lethal Conc. (MLC): 16 µg/mL
[8]; read at 48 hr
  Minimum Inhibitory Conc. (MIC), 48 hr.: 8 µg/mL
[8]; read at 72 hr
  Minimum Inhibitory Conc. (MIC), 72 hr.: 8 µg/mL
